Results: article PMC8347608, “Natural Compounds Isolated from Stachybotrys chartarum Are Potent Inhibitors of Human Protein Kinase CK2” (Molecules, 2021)

Chains of the proteins cited; added tags and fusions are not shown.
UniProt P68400, whole entry, looked up: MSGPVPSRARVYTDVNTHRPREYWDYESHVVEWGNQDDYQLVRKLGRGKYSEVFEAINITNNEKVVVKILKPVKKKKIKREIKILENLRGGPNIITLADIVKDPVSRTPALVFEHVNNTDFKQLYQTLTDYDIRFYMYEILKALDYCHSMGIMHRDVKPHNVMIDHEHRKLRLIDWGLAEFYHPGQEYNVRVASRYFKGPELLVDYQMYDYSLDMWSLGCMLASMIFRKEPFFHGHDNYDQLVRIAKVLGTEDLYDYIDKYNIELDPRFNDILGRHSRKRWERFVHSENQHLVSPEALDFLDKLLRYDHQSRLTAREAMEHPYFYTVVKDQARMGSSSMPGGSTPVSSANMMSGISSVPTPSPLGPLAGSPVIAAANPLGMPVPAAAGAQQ

Biological target: human recombinant CK2 holoenzyme (Homo sapiens, UniProt P68400)
Assay: CE-based CK2 activity assay (substrate peptide RRRDDDSDDD)
Type: biochemical
Details: 10 µM compound, relative to DMSO control

SMILES	% Inhibition at 10 µM
CC1=C[C@H]2O[C@@H]3C[C@@H]4OC(=O)/C=C/C=C/COCC/C([C@@H](O)[C@H](C)O)=C/C(=O)OC[C@@]2(CC1)[C@]4(C)[C@]31CO1	10 (n.d.) %
CC1=CC2OC3CC4OC(=O)C=CC=CC5(C(C)O)OCCC6(OC6C(=O)OCC2(CC1)C4(C)C31CO1)C5O (centres unmarked)	12 (n.d.) %
